According to PubChem BioAssay AID527 (NMMLSC, 2006):
The entries are a selection whose mix differs from that of the whole data set. Activity calls are given as the source filed them.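 How the source made its calls: active means share of bacteria positive for the green fluorescent reporter and its mean brightness both inhibited by 50% or more; inactive means the rest, inconclusive results apart.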

Assay: blockers of AIP-driven agr signalling in S. aureus – RNAIII-GFP reporter, flow cytometry, primary screen (AID 527);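 further: 0% = AIP-stimulated control and 100% = unstimulated bacteria without AIP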
Conditions: S. aureus RN6390 RNAIII-GFP reporter, AIP-induced, flow cytometry 3 h; at 2 µM; hits give high values

SMILES	inhibition
Fc1ccccc1NC1CCN(Cc2ccccc2)CC1	inactive: -0.2%
N#CC1(Nc2ccccc2)CCN(CCc2ccccc2)CC1	inactive: 2.7%
